Consider 83 compounds from PubChem BioAssay AID1706 (The Scripps Research Institute Molecular Screening Center, 2009).

This is a selection; strong and weak results do not stand in their true shares. Calls of active or inactive are those of the source. Rule as the data show it: active = inhibition above about 12%; inactive = the rest.

This assay has as its target Replicase polyprotein 1ab (Severe acute respiratory syndrome coronavirus) (UniProt P0C6X7). Put plainly: SARS-CoV 3CLpro protease inhibitors, primary screen, biochemical, quenched FRET (AID 1706). The following applies: recombinant SARS-CoV 3CLpro, quenched FRET peptide cleavage; at 6 µM; hits give high values.
The inhibition is the change of the read-out against control, counted positive when it falls. For the compound `Cc1cc(C)cc(OP(C)(=O)Nc2cccc(C(F)(F)F)c2)c1` (stereo not drawn), the inhibition is inactive: -3.25%. For `COc1ccccc1OP(C)(=O)Nc1ccc(C)c(C)c1` (stereo not drawn), the inhibition is inactive: 1.44%. The result for `COc1ccc(OP(C)(=O)Nc2ccccc2Br)cc1` (stereo not drawn) reads inactive: -2.88%. The figure for `Cc1nc2ccc3ccccc3c2o1.O=[N+]([O-])c1cc([N+](=O)[O-])c(O)c([N+](=O)[O-])c1` is inactive: -4.46%. The figure for `CP(=O)(OCCOc1ccccc1)OCCOc1ccccc1` is inactive: -2.65%.

`CP(=O)(Nc1ccc(Cl)cc1Cl)Oc1ccccc1` (stereo not drawn): the inhibition was inactive: 1.67%. The result for `COc1ccccc1OP(C)(=O)Nc1ccc(Br)cc1` (stereo not drawn) reads inactive: 2.56%. Consider `COc1ccc(OP(C)(=O)Nc2ccccn2)cc1` (stereo not drawn), for which the inhibition is inactive: 3.34%.

For `CN(C)CCOC(=O)C(O)(c1ccccc1)C1CCCC1` (stereo not drawn), the inhibition is inactive: 0.91%. `O=[N+]([O-])c1cc([N+](=O)[O-])c(Nc2ccccn2)c([N+](=O)[O-])c1`: the inhibition is inactive: 4.7%.

Consider `Cc1c(NP(C)(=O)Oc2ccc(C(C)C)cc2)c(=O)n(-c2ccccc2)n1C` (stereo not drawn), for which the inhibition is inactive: 3.07%. The figure for `CP(=O)(Nc1ccccn1)Oc1ccccc1` (stereo not drawn) is inactive: 3.07%. For the compound `COc1ccccc1OP(C)(=O)Nc1ccc(C)cc1C` (stereo not drawn), the inhibition is inactive: -4.76%. `CCc1ccc(OP(C)(=O)O)cc1`: the inhibition was inactive: -3.27%. In the case of `CCN(CC)CC(O)COC(=O)C(O)(c1ccccc1)C1CCCCC1` (stereo not drawn), the inhibition is inactive: -1.47%.

For the compound `COc1ccc(OP(C)(=O)Nc2ccc(Br)cc2)cc1` (stereo not drawn), the inhibition was inactive: 0.19%. Consider `COc1ccccc1OP(C)(=O)Nc1c(C)n(C)n(-c2ccccc2)c1=O` (stereo not drawn), for which the inhibition was inactive: -7.09%. Turning to `O=C(OCCCN1CCCC1)C(O)(c1ccccc1)C1CCCCC1` (stereo not drawn), the inhibition is inactive: 7.34%.

Take `CP(=O)(Oc1ccccc1)N1CCOC1=O` (stereo not drawn): the inhibition is inactive: -1.84%. The figure for `CCc1ccc(OP(C)(=O)Nc2cccnc2)cc1` (stereo not drawn) is inactive: 5.06%; for `CC(C)(C)c1ccc(OP(C)(=O)O)cc1` it is inactive: -1.11%.

Take `COc1ccccc1OP(C)(=O)Nc1ccccc1Br` (stereo not drawn): the inhibition is inactive: 3.89%. The result for `CP(=O)(Nc1ccc(Cl)cc1)Oc1ccc(F)cc1` (stereo not drawn) reads inactive: 4.01%. With `CN(C)C(=O)c1c([N+](=O)[O-])cc([N+](=O)[O-])cc1[N+](=O)[O-]`, the inhibition is inactive: 3.92%. For the compound `CCOC(=O)c1ccc(NP(C)(=O)Oc2ccc(Cl)cc2)cc1` (stereo not drawn), the inhibition is inactive: 3.43%. With `CP(=O)(OC12CC3CC(CC(C3)C1)C2)OC12CC3CC(CC(C3)C1)C2`, the inhibition was inactive: -3.35%. For the compound `COc1ccc(OP(C)(=O)Nc2cccc(Br)c2)cc1` (stereo not drawn), the inhibition was inactive: 0.23%. For the compound `CN(C)CCOC(=O)C(O)(c1ccccc1)C1CCCCC1` (stereo not drawn), the inhibition was inactive: -0.56%. The figure for `COc1ccc(NP(C)(=O)Oc2ccccc2OC)cc1` (stereo not drawn) is inactive: -0.59%. The figure for `O=[N+]([O-])c1ccc(OP2(=O)COCCO2)cc1` (stereo not drawn) is inactive: -1.99%; for `O=[N+]([O-])c1cc([N+](=O)[O-])c(NCC2CCS(=O)(=O)C2)c([N+](=O)[O-])c1` (stereo not drawn) it is inactive: 0.31%. The result for `Cc1cc(-c2cccc3ccccc23)c(C)cn1.O=[N+]([O-])c1cc([N+](=O)[O-])c(O)c([N+](=O)[O-])c1` reads inactive: 7.59%; that for `CP(=O)(Nc1ccc(SC(F)(F)F)cc1)Oc1ccc(F)cc1` (stereo not drawn), inactive: -0.11%. On to `CCOP(C)(=S)SCC(=O)NC(C)(CC)C(=O)O` (stereo not drawn), for which the inhibition was inactive: -9.35%. Turning to `CP(=O)(Nc1ccc2c(c1)OCCO2)Oc1ccccc1` (stereo not drawn), the inhibition was inactive: 1.13%. With `Cc1ccccc1NP(C)(=O)Nc1ccccc1C`, the inhibition was inactive: 1.47%. Consider `CP(=O)(Nc1ccccc1F)Oc1ccccc1` (stereo not drawn), for which the inhibition was inactive: 3.57%. The figure for `CC(C)c1ccc(OP(C)(=O)Nc2ccc(SC(F)(F)F)cc2)cc1` (stereo not drawn) is inactive: 2.86%. Turning to `O=C(OC1CN2CCC1CC2)c1ccc([N+](=O)[O-])cc1` (stereo not drawn), the inhibition was inactive: -0.48%. The result for `CCOC(=O)c1ccc(NP(C)(=O)Oc2ccc(F)cc2)cc1` (stereo not drawn) reads inactive: -7.91%. Turning to `COc1ccc(OP(C)(=O)Nc2ccc(SC(F)(F)F)cc2)cc1` (stereo not drawn), the inhibition was inactive: 5.63%. The figure for `CCN(CC)CCCOC(=O)C(O)(c1ccccc1)C1CCCCC1` (stereo not drawn) is inactive: -0.48%; for `CP(=O)(Nc1ccccc1)Oc1ccc(F)cc1` (stereo not drawn) it is inactive: -4.06%; for `O=[N+]([O-])c1cc([N+](=O)[O-])c(OC2CCCCC2O)c([N+](=O)[O-])c1` (stereo not drawn) it is inactive: 3.7%. The result for `CCCCCOc1ccc(NP(C)(=O)Oc2ccc(Cl)cc2Cl)cc1` (stereo not drawn) reads inactive: 3.42%; that for `O=C(O)c1cccc(Nc2c([N+](=O)[O-])cc([N+](=O)[O-])cc2[N+](=O)[O-])c1`, inactive: -0.7%.

With `CC1=NCCc2c1[nH]c1ccccc21.O=[N+]([O-])c1cc([N+](=O)[O-])c(O)c([N+](=O)[O-])c1`, the inhibition is inactive: -5.41%. Turning to `COc1ccccc1OP(C)(=O)Nc1cccc(Br)c1` (stereo not drawn), the inhibition is inactive: -2.68%.

`CCOC(=O)c1ccc(NP(C)(=O)Oc2cc(C)cc(C)c2)cc1` (stereo not drawn): the inhibition is inactive: 5.48%.

Take `Cc1cc(C)cc(OP(C)(=O)Nc2ccc(C)cc2C)c1` (stereo not drawn): the inhibition is inactive: -2.27%. In the case of `Cc1ccc(C)c(NP(C)(=O)Oc2ccccc2)c1` (stereo not drawn), the inhibition was inactive: -0.35%. Consider `CP(=O)(Nc1cccc(Br)c1)Oc1ccccc1` (stereo not drawn), for which the inhibition was inactive: 0.79%. On to `Cc1cc(C)cc(OP(C)(=O)Nc2ccccn2)c1` (stereo not drawn), for which the inhibition is inactive: 2.1%.

Regarding `O=[N+]([O-])c1cc([N+](=O)[O-])c(-n2nnc3ccccc32)c([N+](=O)[O-])c1`, the inhibition was inactive: 2.73%. With `Cc1nc2ccc3ccccc3c2s1.O=[N+]([O-])c1cc([N+](=O)[O-])c(O)c([N+](=O)[O-])c1`, the inhibition was inactive: 4.55%. The result for `O=[N+]([O-])c1cc([N+](=O)[O-])c(Nc2nnnn2CCO)c([N+](=O)[O-])c1` reads inactive: -1.88%.

For `CCOC(=O)C(CC)C1=NC(C)(C)Cc2ccccc21.O=[N+]([O-])c1cc([N+](=O)[O-])c(O)c([N+](=O)[O-])c1` (stereo not drawn), the inhibition was inactive: -0.23%. The result for `COc1ccccc1OP(C)(=O)Nc1c(C)cccc1C` (stereo not drawn) reads inactive: -4.44%; that for `CN1CCCCC1COC(=O)C1(O)c2ccccc2CCc2ccccc21` (stereo not drawn), inactive: 0.35%; that for `CP(=O)(Nc1ccc(SC(F)(F)F)cc1)Oc1ccccc1` (stereo not drawn), inactive: -5.73%. With `CCCOc1ccc(NP(C)(=O)Oc2ccc(Cl)cc2)cc1` (stereo not drawn), the inhibition was inactive: 4.65%. The figure for `CP(=S)(Nn1cnnc1)Oc1ccccc1` (stereo not drawn) is inactive: 2.45%; for `CP(=O)(Nc1ccccc1Br)Oc1ccccc1` (stereo not drawn) it is inactive: -2.75%; for `COc1ccccc1OP(C)(=O)Nc1ccccc1` (stereo not drawn) it is inactive: -3.28%. For the compound `Cc1cccc(C)c1OP(C)(=O)Nc1ccc(SC(F)(F)F)cc1` (stereo not drawn), the inhibition was inactive: 5.26%.

On to `CP(=O)(Nc1ccc(SC(F)(F)F)cc1)Oc1ccc(Cl)cc1` (stereo not drawn), for which the inhibition is inactive: 3.65%. With `CP(=O)(Oc1ccccc1)OC(c1ccccc1)C(F)(F)F` (stereo not drawn), the inhibition was inactive: 2.01%. For the compound `CCc1ccc(OP(C)(=O)N2CCN(c3ccc([N+](=O)[O-])cc3)CC2)cc1` (stereo not drawn), the inhibition is inactive: 3.47%. In the case of `CP(=O)(NC(=O)Nc1ccccc1)Oc1ccccc1` (stereo not drawn), the inhibition was inactive: -0.37%. The figure for `Cc1cc(C)cc(OP(C)(=O)Nc2ccc(SC(F)(F)F)cc2)c1` (stereo not drawn) is inactive: 1.01%; for `CCOC(=O)c1ccc(NP(C)(=O)Oc2ccc(OC)cc2)cc1` (stereo not drawn) it is inactive: 7.93%; for `CCOP(C)(=S)SCC(=O)NC(C)C(=O)O` (stereo not drawn) it is inactive: -1.33%. `CP(=O)(Nc1ccccn1)Oc1ccc(Cl)cc1` (stereo not drawn): the inhibition was inactive: 2.47%. For `CCN(CC)CCCOC(=O)C(O)(c1ccccc1)c1ccccc1`, the inhibition is inactive: -3.73%. Consider `O=[N+]([O-])c1ccc2c(c1)C=Nc1ccccc1O2`, for which the inhibition is inactive: 6.77%.

Turning to `CC(C)(C)c1ccc(OP(C)(=O)Nc2ccc(SC(F)(F)F)cc2)cc1` (stereo not drawn), the inhibition was inactive: -4.97%. The result for `Cc1cccc(C)c1OP(C)(N)=O` (stereo not drawn) reads inactive: 1.28%.

As to `COc1ccccc1OP(C)(=O)Nc1ccc(C)cc1` (stereo not drawn), the inhibition was inactive: -3.13%. Consider `Cc1ccc(NP(C)(=O)Oc2ccccc2)c(C)c1` (stereo not drawn), for which the inhibition was inactive: 1.31%. The result for `CCOC(=O)c1ccc(NP(C)(=O)Oc2ccccc2)cc1` (stereo not drawn) reads inactive: -4.4%; that for `Cc1cc(C)cc(OP(C)(N)=O)c1` (stereo not drawn), inactive: -2.95%; that for `COc1ccccc1OP(C)(=O)Nc1cc(Cl)ccc1C` (stereo not drawn), inactive: -4.87%. Regarding `COc1ccc(OP(C)(=O)Nc2cccc(F)c2)cc1` (stereo not drawn), the inhibition is inactive: 1.39%.
